Source: PubChem BioAssay AID743269 (The Scripps Research Institute Molecular Screening Center, 2014)
The entries are a selection whose mix differs from that of the whole data set. The source made the active and inactive calls.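 The calls were made as follows: active = inhibition above the screen-wide mean plus 3 SD (cut at about 13% in these data); inactive = the rest.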

System: HIV-1 integrase (with human LEDGF/p75)
Experiment: blockers of LEDGF/p75-dependent integrase strand transfer – biochemical, TR-FRET, high throughput, primary screen (AID 743269);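 also: signal is the Cy5 over europium emission ratio at 671 and 618 nm; 0% = plate median of compound wells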
Conditions: TR-FRET IN-LEDGF/p75 DNA integration, Eu/Cy5; at 3.7 µM; hits give high values

| Structure (SMILES) | inhibition |
| --- | --- |
| CCN(CC)CCCNc1ccccc1[N+](=O)[O-].O=[N+]([O-])c1cc([N+](=O)[O-])c(O)c([N+](=O)[O-])c1 | inactive: 0.5% |
| CP(=O)(Nc1ccccc1)Oc1ccc(F)cc1 (stereo not given) | inactive: 0.15% |
| CCCCCOc1ccc(NP(C)(=O)Oc2ccc(Cl)cc2Cl)cc1 (stereo not given) | inactive: -3.88% |
| O=[N+]([O-])c1cc([N+](=O)[O-])c(OC2CCCCC2O)c([N+](=O)[O-])c1 (stereo not given) | inactive: 0.48% |
| Cc1c([N+](=O)[O-])cc([N+](=O)[O-])c(Br)c1[N+](=O)[O-] | inactive: 7.84% |
| CCN(CC)CCCOC(=O)C(O)(c1ccccc1)C1CCCCC1 (stereo not given) | inactive: 1.6% |
| O=C(O)c1cccc(Nc2c([N+](=O)[O-])cc([N+](=O)[O-])cc2[N+](=O)[O-])c1 | inactive: 8.25% |
| CC1=NCCc2c1[nH]c1ccccc21.O=[N+]([O-])c1cc([N+](=O)[O-])c(O)c([N+](=O)[O-])c1 | inactive: -3.52% |
| CCOC(=O)c1ccc(NP(C)(=O)Oc2cc(C)cc(C)c2)cc1 (stereo not given) | inactive: -0.57% |
| Cc1cc(C)cc(OP(C)(=O)Nc2ccc(C)cc2C)c1 (stereo not given) | inactive: 0.67% |
| COc1ccccc1OP(C)(=O)Nc1cccc(Br)c1 (stereo not given) | inactive: -1.05% |
| Cc1ccc(C)c(NP(C)(=O)Oc2ccccc2)c1 (stereo not given) | inactive: 4.1% |
| CP(=O)(Nc1cccc(Br)c1)Oc1ccccc1 (stereo not given) | inactive: 0.67% |
| Cc1cc(C)cc(OP(C)(=O)Nc2ccccn2)c1 (stereo not given) | inactive: -5.19% |
| CN(Cc1cccnc1)C(=O)COc1ccc(Cl)c(Cl)c1.O=[N+]([O-])c1cc([N+](=O)[O-])c(O)c([N+](=O)[O-])c1 | inactive: -3.7% |
| O=[N+]([O-])c1cc([N+](=O)[O-])c(-n2nnc3ccccc32)c([N+](=O)[O-])c1 | inactive: -3.86% |
| Cc1nc2ccc3ccccc3c2s1.O=[N+]([O-])c1cc([N+](=O)[O-])c(O)c([N+](=O)[O-])c1 | inactive: 6.3% |
| O=[N+]([O-])c1cc([N+](=O)[O-])c(-c2cnn(-c3ccccc3)c2)c([N+](=O)[O-])c1 | inactive: -0.7% |
| O=[N+]([O-])c1cc([N+](=O)[O-])c(Nc2nnnn2CCO)c([N+](=O)[O-])c1 | inactive: 1.55% |
| CCOC(=O)C(CC)C1=NC(C)(C)Cc2ccccc21.O=[N+]([O-])c1cc([N+](=O)[O-])c(O)c([N+](=O)[O-])c1 (stereo not given) | inactive: -1.88% |
| COc1ccc(-c2ccccn2)cc1.O=[N+]([O-])c1cc([N+](=O)[O-])c(O)c([N+](=O)[O-])c1 | inactive: 12.2% |
| CP(=O)(Nc1ccc(SC(F)(F)F)cc1)Oc1ccccc1 (stereo not given) | inactive: -3.27% |
| CCCOc1ccc(NP(C)(=O)Oc2ccc(Cl)cc2)cc1 (stereo not given) | inactive: -5.59% |
| CN1CCCCC1COC(=O)C1(O)c2ccccc2CCc2ccccc21 (stereo not given) | inactive: -1.52% |
| COc1ccccc1OP(C)(=O)Nc1c(C)cccc1C (stereo not given) | inactive: -1.66% |

| Structure (SMILES) | inhibition |
| --- | --- |
| CP(=O)(Nc1ccccc1Br)Oc1ccccc1 (stereo not given) | inactive: -0.29% |
| COc1ccccc1OP(C)(=O)Nc1ccccc1 (stereo not given) | inactive: -4.01% |
| CP(=S)(Nn1cnnc1)Oc1ccccc1 (stereo not given) | inactive: -0.34% |
| CCc1ccc(OP(C)(=O)N2CCN(c3ccc([N+](=O)[O-])cc3)CC2)cc1 (stereo not given) | inactive: -4% |
| CP(=O)(NC(=O)Nc1ccccc1)Oc1ccccc1 (stereo not given) | inactive: -0.74% |
| Cc1cc(C)cc(OP(C)(=O)Nc2ccc(SC(F)(F)F)cc2)c1 (stereo not given) | inactive: -2.48% |
| CP(=O)(Nc1ccc(SC(F)(F)F)cc1)Oc1ccc(Cl)cc1 (stereo not given) | inactive: 1.2% |
| Cc1cccc(C)c1OP(C)(=O)Nc1ccc(SC(F)(F)F)cc1 (stereo not given) | inactive: -1.74% |
| CP(=O)(Oc1ccccc1)OC(c1ccccc1)C(F)(F)F (stereo not given) | inactive: 3.34% |
| CP(=O)(Nc1ccccn1)Oc1ccc(Cl)cc1 (stereo not given) | inactive: -4.29% |
| O=[N+]([O-])c1cc([N+](=O)[O-])c(O)c([N+](=O)[O-])c1.c1ccc(Oc2ccncc2)cc1 | inactive: 0.36% |
| CCOC(=O)c1ccc(NP(C)(=O)Oc2ccc(OC)cc2)cc1 (stereo not given) | inactive: -0.57% |
| CCOP(C)(=S)SCC(=O)NC(C)C(=O)O (stereo not given) | inactive: -0.45% |
| CCN(CC)CCCOC(=O)C(O)(c1ccccc1)c1ccccc1 | inactive: -5.36% |
| COc1ccccc1-c1ccccn1.O=[N+]([O-])c1cc([N+](=O)[O-])c(O)c([N+](=O)[O-])c1 | inactive: 2.7% |
| O=[N+]([O-])c1ccc2c(c1)C=Nc1ccccc1O2 | inactive: -1.8% |
| CC(C)(C)c1ccc(OP(C)(=O)Nc2ccc(SC(F)(F)F)cc2)cc1 (stereo not given) | inactive: -1.07% |
| Cc1cccc(C)c1OP(C)(N)=O (stereo not given) | inactive: 0.4% |
| O=[N+]([O-])c1cc([N+](=O)[O-])c(Nc2cccnc2)c([N+](=O)[O-])c1 | inactive: 4.46% |
| Cc1cc(C)cc(OP(C)(N)=O)c1 (stereo not given) | inactive: 2.43% |
| COc1ccccc1OP(C)(=O)Nc1cc(Cl)ccc1C (stereo not given) | inactive: 0.48% |
| COc1ccc(OP(C)(=O)Nc2cccc(F)c2)cc1 (stereo not given) | inactive: -1.5% |
| COc1ccccc1OP(C)(=O)Nc1ccc(C)cc1 (stereo not given) | inactive: -2.28% |
| Cc1ccc(NP(C)(=O)Oc2ccccc2)c(C)c1 (stereo not given) | inactive: 1.18% |
| CCOC(=O)c1ccc(NP(C)(=O)Oc2ccccc2)cc1 (stereo not given) | inactive: 3.48% |
